Compound potency records, mixed from different reports. Data source: NIAID ChemDB in PubChem.

Common to all: enzyme or target tests

Blank or dashed fields: not listed here.

smiles	target	measure	read by	strain	species	value
CCC[C@H](NC(=O)[C@H](CC1CCCCC1)NC(=O)[C@@H](NC(=O)[C@@H](NC(=O)CCC(=O)O)C1CCCCC1)C(C)CC)C(=O)NS(=O)(=O)c1ccccc1	NS3 protease	Ki			Hepatitis C virus	5.3 µM
N#Cc1c(Cl)cc(Cl)cc1COc1cccc(/C(O)=C/C(=O)C(=O)O)c1	NS5B polymerase	IC50			Hepatitis C virus	0.05 µM
CCC[C@H](NC(=O)C1C[C@@H](OC(=O)N2CCc3ccccc3C2)CN1C(=O)[C@@H](NC(=O)[C@@H](NC(=O)c1cnccn1)C(C)C)C(C)C)C(=O)C(=O)N1CC(Oc2ccccc2)C1	HCV NS3 protease	Ki			Hepatitis C virus	<1 µM
COc1cccc(NC(=O)Nc2cccc(-c3nc(C(=O)O)c(O)c(=O)[nH]3)c2)c1	HCV polymerase	IC50			Hepatitis C virus	<100 µM
O=C(O)CP(=O)(O)O	DNA polymerase	IC50			Hepatitis B virus	>500 µM
O=C(O)C(=O)/C=C(\O)c1ccccc1	NS5B polymerase	IC50			Hepatitis C virus	6 µM
CCC[C@H](NC(=O)[C@H](CC1CCCCC1)NC(=O)[C@@H](NC(=O)[C@@H](NC(=O)CCC(=O)O)C1CCCCC1)C(C)CC)C(=O)O	NS3 protease	Ki			Hepatitis C virus	28 µM
Clc1c(Cl)c(Cl)c2n[nH]nc2c1Cl	Nonstructural protein 3 NTPase/helicase	IC50			Hepatitis C virus	>500 µM
O=P(O)(O)P(=O)(O)O	DNA polymerase	IC50			Hepatitis B virus	~500 µM
C=CC1CC1(NC(=O)[C@@H]1C[C@@H](Oc2cc(-c3ccccc3)nc3cc(OC)ccc23)CN1C(=O)[C@@H](NC(=O)OC(C)(C)C)C(C)(C)C)C(=O)O	HCV NS3/NS4A protease	IC50			Hepatitis C virus	0.082 µM
O=C(O)C(O)P(=O)(O)O	DNA polymerase	IC50			Hepatitis B virus	>500 µM
CN(C)CCNc1cc(C(=O)Nc2ccc3nc[nH]c3c2)c(F)cc1F	NS5B polymerase	IC50			Hepatitis C virus	>0.1 µg/mL
O=C(Cc1ccc2ccccc2c1)Nc1ccsc1-c1nc(C(=O)O)c(O)c(=O)[nH]1	HCV polymerase	IC50			Hepatitis C virus	<25 µM
CSCC[C@H](NC(=O)[C@H](CCC(=O)O)NC(=O)[C@@H](N)CC(=O)O)C(=O)N[C@@H](CCC(=O)O)C(=O)N[C@@H](CCC(=O)O)C(=O)N(C#N)[C@@H](C)C(=O)O	NS3 protease	IC50			Hepatitis C virus	19 µM
COc1cccc(COc2cccc(-c3nc(C(=O)O)c(O)c(=O)[nH]3)c2)c1	HCV polymerase	IC50			Hepatitis C virus	<100 µM
CC[C@H](NC(=O)[C@@H](NC(=O)[C@@H](NC(=O)[C@H](CC(=O)O)NC(=O)CCC(=O)O)C(C)C)C(C)C)C(=O)N[C@@H](CS)C(=O)O	HCV NS3 protease	IC50			Hepatitis C virus	4.6 µM
N[C@@H](CC(=O)O)C(=O)N[C@@H](CCC(=O)O)C(=O)N[C@@H](Cc1ccc(O)cc1)C(=O)N[C@@H](CCC(=O)O)C(=O)N[C@@H](CC1CCCCC1)C(=O)N[C@@H](CS)C(=O)O	NS3 protease	IC50			Hepatitis C virus	0.24 µM
C=C[C@H]1CC1(NC(=O)[C@@H]1C[C@@H](Oc2nc(-c3ccccc3)nc3ccccc23)CN1C(=O)[C@@H](Nc1ccc(C(=O)OC)cc1)C1CCCCC1)C(=O)O	HCV NS3/NS4A protease	IC50			Hepatitis C virus	1.2 µM
CC(C)[C@H](NC(=O)[C@H](CCC(=O)O)NC(=O)[C@@H](N)CC(=O)O)C(=O)N[C@@H](CCC(=O)O)C(=O)N[C@@H](CC1CCCCC1)C(=O)N[C@@H](CS)C(=O)O	NS3 protease	IC50			Hepatitis C virus	0.33 µM
O=C(CCCCC(=O)Nc1ccc(-c2nc3ccccc3[nH]2)cc1)Nc1ccc(-c2nc3ccccc3[nH]2)cc1	HCV NS3 helicase	IC50			Hepatitis C virus	0.7 µM
COc1ccc2c(O[C@@H]3C[C@@H](C(=O)NC4(C(=O)O)CC4)N(C(=O)[C@@H](NC(=O)OC(C)(C)C)C(C)(C)C)C3)cc(-c3ccccc3)nc2c1	HCV NS3/NS4A protease	IC50			Hepatitis C virus	0.475 µM
C=CC1CC1(NC(=O)C1CC(Oc2cc(-c3ccccc3)nc3cc(OC)ccc23)CN1C(=O)[C@@H](NC(=O)OC(C)(C)C)C(C)C)C(=O)NS(=O)(=O)Cc1ccccc1	NS3 protease	Ki			Hepatitis C virus	0.018 µM
CC[C@H](C)[C@H](NC(=O)[C@H](CC(C)C)NC(=O)[C@@H](CC(C(=O)O)C(=O)O)NC(=O)[C@H](CC(=O)O)NC(C)=O)C(=O)N[C@@H](CC1CCCCC1)C(=O)N[C@@H](CS)C(=O)O	HCV NS3 protease	IC50			Hepatitis C virus	0.0015 µM
O=C(Nc1ccsc1-c1nc(C(=O)O)c(O)c(=O)[nH]1)OCc1ccccc1	HCV polymerase	IC50			Hepatitis C virus	<25 µM
CCC[C@H](NC(=O)C1CC(Oc2cc(-c3ccccc3)nc3cc(OC)ccc23)CN1C(=O)[C@@H](NC(=O)OC(C)(C)C)C(C)C)C(=O)NS(=O)(=O)c1ccccc1	NS3 protease	Ki			Hepatitis C virus	0.3 µM
CSCC[C@H](NC(=O)[C@H](CCC(=O)O)NC(=O)CCC(=O)O)C(=O)N[C@@H](CCC(=O)O)C(=O)N[C@@H](CCC(=O)O)C(=O)N[C@@H](CS)C(=O)O	HCV NS3 protease	IC50			Hepatitis C virus	1.3 µM
C=C[C@H]1CC1(NC(=O)[C@@H]1C[C@@H](Oc2ccnc3ccccc23)CN1C(=O)[C@@H](NC(=O)OC(C)(C)C)[C@@H](C)OC)C(=O)O	HCV NS3/NS4A protease	IC50			Hepatitis C virus	2.6 µM
C=C[C@@H]1C[C@]1(NC(=O)[C@@H]1C[C@@H](Oc2cc(-c3ccccc3)nc3cc(OC)ccc23)CN1C(=O)[C@@H](NC(=O)OC(C)(C)C)C(C)(C)C)C(=O)NS(=O)(=O)c1ccccc1C(=O)OC	NS3/NS4A protease	IC50		BMS	Hepatitis C virus	<0.5 µM
NN1C(=O)/C(=C/c2ccc([N+](=O)[O-])cc2)SC1=S	NS5B polymerase	IC50			Hepatitis C virus	1000 µM
COc1ccccc1COC(=O)Nc1cscc1-c1nc(C(=O)O)c(O)c(=O)[nH]1	HCV polymerase	IC50			Hepatitis C virus	<25 µM
CC[C@H](NC(=O)[C@@H](NC(=O)[C@@H](NC(=O)[C@H](CC(=O)O)NC(=O)[C@@H](N)CCC(=O)O)C(C)C)C(C)C)C(=O)N[C@H](CS)C(=O)O	NS3 protease	IC50			Hepatitis C virus	194 µM
C=C[C@@H]1C[C@]1(NC(=O)[C@@H]1C[C@@H](Oc2cc(-c3ccccc3)nc3cc(OC)ccc23)CN1C(=O)[C@@H](NC(=O)Oc1ccccc1)C(C)(C)C)C(=O)NS(=O)(=O)C1CC1	NS3/NS4A protease	IC50		BMS	Hepatitis C virus	<0.05 µM
O=P(O)(O)CP(=O)(O)O	DNA polymerase	IC50			Hepatitis B virus	>500 µM
O=C(N[C@@H](Cc1c[nH]c2ccc(O)cc12)C(=O)O)c1ccc2c(c1)nc(-c1ccoc1)n2C1CCCC[C@H]1CCc1ccccc1	NS5B polymerase	IC50			Hepatitis C virus	<1 µM
NCc1ccc(COC(=O)Nc2ccsc2-c2nc(C(=O)O)c(O)c(=O)[nH]2)cc1	HCV polymerase	IC50			Hepatitis C virus	<25 µM
CSCC[C@H](NC(=O)[C@H](CCC(=O)O)NC(=O)[C@@H](CC(=O)O)NC(C)=O)C(=O)N[C@@H](CCC(=O)O)C(=O)N[C@@H](CCC(=O)O)C(=O)N[C@@H](CS)C(=O)O	NS3 serine protease	IC50			Hepatitis C virus	1 µM
CCC[C@H](NC(=O)C1CC(Oc2cc(-c3ccccc3)nc3cc(OC)ccc23)CN1C(=O)[C@@H](NC(=O)OC(C)(C)C)C(C)C)C(=O)NS(=O)(=O)CCc1ccccc1	NS3 protease	Ki			Hepatitis C virus	0.42 µM
O=C(Nc1ccc(Oc2ccc(Cl)c3ccccc23)cc1)c1ccccc1NS(=O)(=O)c1ccc(Cl)cc1	NS3 serine protease	IC50			Hepatitis C virus	6.5 µM
C=C[C@H]1CC1(NC(=O)[C@@H]1C[C@@H](Oc2cc(-c3ccccc3)nc3cc(OC)ccc23)CN1C(=O)[C@@H](Nc1nc(CC)cs1)C(C)(C)C)C(=O)O	HCV NS3/NS4A protease	IC50			Hepatitis C virus	0.026 µM
O=C(O)c1nc(-c2sccc2NC(=O)C2CCN(c3ncccn3)CC2)[nH]c(=O)c1O	HCV polymerase	IC50			Hepatitis C virus	<25 µM
CSCC[C@H](NC(C)=O)C(=O)N[C@@H](CCC(=O)O)C(=O)N[C@@H](CCC(=O)O)C(=O)N[C@@H](CS)C(=O)O	HCV NS3 protease	IC50			Hepatitis C virus	150 µM
C[C@@]1(O)[C@H](O)[C@@H](COP(=O)(O)OP(=O)(O)OP(=O)(O)O)O[C@H]1c1ccc2c(N)ncnn12	Nonstructural protein 5B	IC50	nucleotide incorporation	GT2a	Hepatitis C virus	0.39 µM
C=C[C@@H]1C[C@]1(NC(=O)[C@@H]1C[C@@H](Oc2cc(-c3ccccc3)nc3cc(OC)ccc23)CN1C(=O)[C@@H](NC(=O)Oc1ccc(OC)cc1)C(C)(C)C)C(=O)NS(=O)(=O)C1CC1	NS3/NS4A protease	IC50		BMS	Hepatitis C virus	<0.05 µM
Cc1cc2c(cc1C(=O)N[C@@H](Cc1c[nH]c3ccc(OCC(=O)O)cc13)C(=O)O)nc(-c1ccoc1)n2C1CCCCC1	NS5B polymerase	IC50			Hepatitis C virus	0.019 µM
CC(O)(C(=O)O)P(=O)(O)O	DNA polymerase	IC50			Hepatitis B virus	>500 µM
OC[C@H]1O[C@@H](n2cnc3cc(Cl)c(Cl)cc32)[C@H](O)[C@@H]1O	Nonstructural protein 3 NTPase/helicase	IC50			Hepatitis C virus	>500 µM
CC(C)[C@H](NC(=O)OC(C)(C)C)C(=O)N1C[C@H](Oc2cc(-c3ccccc3)nc3ccc([N+](=O)[O-])cc23)C[C@H]1C(=O)NC1(C(=O)O)CC1	HCV NS3/NS4A protease	IC50			Hepatitis C virus	8.9 µM
CC[C@H](C)[C@H](NC(=O)[C@@H](NC(=O)[C@H](CCC(=O)O)NC(=O)[C@@H](N)CC(=O)O)C(c1ccccc1)c1ccccc1)C(=O)N[C@@H](CC1CCCCC1)C(=O)N[C@@H](CS)C(=O)O	NS3 protease	IC50			Hepatitis C virus	0.06 µM
COc1ccc2c(O[C@@H]3C[C@@H](C(=O)NC4(C(=O)NS(=O)(=O)C5CC5)CC4)N(C(=O)[C@@H](NC(=O)OC(C)(C)C)C(C)(C)C)C3)cc(-c3ccccc3)nc2c1	NS3/NS4A protease	IC50		BMS	Hepatitis C virus	<0.05 µM
CC(C)C[C@H](NC(=O)[C@H](CC(=O)O)NC(=O)[C@H](CC1CCCCC1)NC(=O)[C@@H]1CCCN1C(=O)[C@H](CS)NC(=O)[C@@H](N)CC1CCCCC1)C(N)=O	NS3/NS4A protease	IC50			Hepatitis C virus	>100 µM
CC[C@H](C)[C@H](NC(=O)[C@@H](NC(=O)[C@H](CCC(=O)O)NC(=O)[C@@H](N)CC(=O)O)C(c1ccccc1)c1ccccc1)C(=O)N[C@@H](CC1CCCCC1)C(=O)O	NS3 protease	IC50			Hepatitis C virus	46 µM
C=C[C@H]1CC1(NC(=O)[C@@H]1C[C@@H](Oc2ccnc3cc(OC)ccc23)CN1C(=O)[C@@H](Nc1ccc(C(=O)NC(C)(C)C)cc1)C(C)(C)C)C(=O)O	HCV NS3/NS4A protease	IC50			Hepatitis C virus	0.045 µM
O=C(NCc1csc2ccccc12)Nc1cscc1-c1nc(C(=O)O)c(O)c(=O)[nH]1	HCV polymerase	IC50			Hepatitis C virus	<25 µM
C[C@@]1(O)[C@H](O)[C@@H](COP(=O)(O)OP(=O)(O)OP(=O)(O)O)O[C@H]1c1cnc2c(=O)[nH]c(N)nn12	Nonstructural protein 5B	IC50	nucleotide incorporation	GT-1b Con1	Hepatitis C virus	0.31 µM
CSCC[C@H](NC(=O)CCC(=O)O)C(=O)N[C@@H](CCC(=O)O)C(=O)N[C@@H](CCC(=O)O)C(=O)N[C@@H](CS)C(=O)O	HCV NS3 protease	IC50			Hepatitis C virus	77 µM
CC(O)(P(=O)(O)O)P(=O)(O)O	DNA polymerase	IC50			Hepatitis B virus	>500 µM
N[C@@H](CC(=O)O)C(=O)N[C@@H](CCC(=O)O)C(=O)N[C@@H](Cc1cccs1)C(=O)N[C@@H](CCC(=O)O)C(=O)N[C@@H](CC1CCCCC1)C(=O)N[C@@H](CS)C(=O)O	NS3 protease	IC50			Hepatitis C virus	0.87 µM
C=C[C@H]1CC1(NC(=O)[C@@H]1C[C@@H](Oc2cc(-c3ccc(OC)cc3)nc3cc(OC)ccc23)CN1C(=O)[C@@H](NC(=O)OC(C)(C)C)C(C)(C)C)C(=O)O	HCV NS3/NS4A protease	IC50			Hepatitis C virus	0.024 µM

ICn is the concentration giving n% inhibition. Rows are shuffled and stem from different studies.